# Data published in patent US20060142204A1, “Pyrrolidine derivatives for use in treating heaptitis c virus infection” (GENOSCIENCE, priority 2002, published 2006).
# Amino acid sequences for entries named in this document (tags omitted). Residues count along the entry.
# UniProt P27958, 1027-1657 limits assumed: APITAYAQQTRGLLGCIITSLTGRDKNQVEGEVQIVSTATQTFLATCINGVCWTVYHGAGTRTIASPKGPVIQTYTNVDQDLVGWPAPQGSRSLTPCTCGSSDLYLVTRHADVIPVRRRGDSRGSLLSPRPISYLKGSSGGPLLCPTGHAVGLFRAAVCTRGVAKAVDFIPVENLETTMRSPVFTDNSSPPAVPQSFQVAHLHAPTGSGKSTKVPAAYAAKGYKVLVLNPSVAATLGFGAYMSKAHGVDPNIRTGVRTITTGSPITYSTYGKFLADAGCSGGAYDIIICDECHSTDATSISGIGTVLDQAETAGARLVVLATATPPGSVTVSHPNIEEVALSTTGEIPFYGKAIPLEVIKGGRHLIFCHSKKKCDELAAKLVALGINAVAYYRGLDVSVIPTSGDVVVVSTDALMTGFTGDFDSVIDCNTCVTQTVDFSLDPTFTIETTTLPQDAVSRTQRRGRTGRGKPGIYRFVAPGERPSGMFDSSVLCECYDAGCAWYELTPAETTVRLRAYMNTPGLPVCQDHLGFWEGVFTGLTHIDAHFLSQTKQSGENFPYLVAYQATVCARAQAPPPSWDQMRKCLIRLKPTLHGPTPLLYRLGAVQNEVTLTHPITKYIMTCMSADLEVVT
# UniProt P27958, 1658-1711 partner limits assumed: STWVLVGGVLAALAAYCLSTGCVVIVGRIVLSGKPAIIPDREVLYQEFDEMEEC
# Biological target: full-length NS3/NS4A complex (Hepatitis C virus genotype 1a, UniProt P27958)
# Settings: read-out: NS3 IC50; enzyme 50 nM, substrate 100 nM, 37° C., 40 minutes
smiles,measurement,value
CC[C@H](NC(=O)[C@@H]1C[C@@H](OC(C)(C)C)CN1C(=O)[C@@H](NC(=O)[C@@H]1C[C@@H](OC(C)(C)C)CN1C(=O)[C@@H](NC(C)=O)C(C)C)C(C)C)C(=O)O,IC50,500 nM
